Values from PubChem BioAssay AID1224833 (University of Georgia, 2016)
Assay: 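Human genes whose knock-down alters rotavirus replication in monkey cells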 (primary screen). System: monkey MA104 kidney cells. Reagent: siRNA pool against human genes, 50 nM. Duration: 48 h knock-down before infection; read 24 h after infection. Challenge: infection with rotavirus strain RV3 two days after transfection; infectious dose for this stage not given. Read-out: 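z-score of rotavirus antigen signal per well, from a fluorescent immunoassay, relative to non-targeting control wells on the same plate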. Direction: z-score vs non-targeting control: higher = more rotavirus replication than with non-targeting control. Rule for the call: In these data the active calls have z-score vs non-targeting control at about -1 or lower, or at about 1 or higher. Meaning of the calls: active = z-score beyond 1 either way; inactive = z-score within 1 of zero.
The deposit covers about 12,000 reagents; this is an unselected part. About 5,600 of all reagents (46%) count as active. 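Active calls cover z-scores past 1 in both directions, so they include lowered as well as raised rotavirus replication.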 Unmarked entries are inactive. No sequences are given here.

The first 13 records, ahead of the listing:
| gene symbol | z-score vs non-targeting control |
| --- | --- |
| SPMIP4 | -0.411 |
| GNAI2 | 0.862 |
| BTAF1 | -1.59 (active) |
| RRM1 | -3.06 (active) |
| CDH22 | -0.398 |
| OR2V2 | -0.546 |
| SHTN1 | -2.32 (active) |
| SLC25A28 | -2.13 (active) |
| G3BP1 | -0.79 |
| DEGS2 | 3.08 (active) |
| ATXN10 | -0.741 |
| TRIM44 | -0.569 |
| HMCES | 0.0864 |

Main list, from the first entry:
| gene symbol | z-score vs non-targeting control |
| --- | --- |
| SPMIP4 | -0.411 |
| GNAI2 | 0.862 |
| BTAF1 | -1.59 (active) |
| RRM1 | -3.06 (active) |
| CDH22 | -0.398 |
| OR2V2 | -0.546 |
| SHTN1 | -2.32 (active) |
| SLC25A28 | -2.13 (active) |
| G3BP1 | -0.79 |
| DEGS2 | 3.08 (active) |
| ATXN10 | -0.741 |
| TRIM44 | -0.569 |
| HMCES | 0.0864 |
| KRT8 | 1.27 (active) |
| GPHRB | -1.25 (active) |
| FPR1 | -1.32 (active) |
| ZW10 | -2.35 (active) |
| NIPAL2 | 1.44 (active) |
| BMP6 | -0.628 |
| PSORS1C1 | -0.766 |
| BLTP3A | -2.1 (active) |
| HTR3D | 1.54 (active) |
| PARPBP | 0.998 |
| CD244 | 0.693 |
| LRTM1 | -0.276 |
| OR8J3 | -0.394 |
| DMAC2L | 1.66 (active) |
| LBX2 | -4.72 (active) |
| SLX4 | -0.353 |
| CPA1 | 0.575 |
| MED17 | -0.553 |
| ABHD13 | -0.944 |
| FAM133B | -1.46 (active) |
| GLCE | -0.871 |
| RMND1 | -0.195 |
| SEMA4B | -2.83 (active) |
| SLC6A20 | -1.69 (active) |
| CEP126 | -1.9 (active) |
| PCTP | -0.0744 |
| GALR1 | -1.74 (active) |
| APLF | -0.962 |
| CERS2 | -0.366 |
| EVI2B | 0.118 |
| RRP36 | -2.23 (active) |
| DCPH1 | 0.575 |
| AVP | 1.02 (active) |
| OR51L1 | -2.54 (active) |
| TK1 | 0.542 |
| SLC3A2 | -0.744 |
| ACBD3 | -1.11 (active) |
| IGFBPL1 | 1.15 (active) |
| SERP1 | -0.514 |
| XBP1 | -0.565 |
| BTBD9 | -0.876 |
| BRS3 | -1.11 (active) |
| MACROD2 | -1.41 (active) |
| ACTB | -0.172 |
| SDHD | -1.22 (active) |
| CSTF2 | -0.479 |
| PCSK6 | 0.602 |
| COL6A2 | 0.0473 |
| USP54 | 0.116 |
| LDLRAD4 | -1.02 (active) |
| SPRY3 | -0.0004 |
| OR4F17 | -0.881 |
| TM2D2 | -0.501 |
| OR2AK2 | -1.1 (active) |
| CHP1 | 0.143 |
| MEGF9 | 0.41 |
| WDR13 | -2.03 (active) |
| RFTN2 | 0.452 |
| IRF8 | -1.22 (active) |
| INO80D | -1.69 (active) |
| TBC1D29P | -0.704 |
| ACTMAP | -0.485 |
| ZSWIM1 | 0.493 |
| RPL3 | -0.283 |
| ZNF770 | -1.15 (active) |
| TBX1 | 0.891 |
| CPSF2 | 0.148 |
| HAUS4 | 0.876 |
| PPAT | -0.918 |
| XPC | 2.3 (active) |
| PNMA1 | 0.308 |
| SANBR | -1.85 (active) |
| ENSA | -0.715 |
| LRRC24 | 0.0634 |
| SP5 | -1.59 (active) |
| NKAP | -0.563 |
| RTL8C | 1.49 (active) |
| PASD1 | -2.32 (active) |
| TOX4 | 0.906 |
| CGN | -1.04 (active) |
| STIM2 | -1.28 (active) |
| MTPAP | -0.525 |
| GHR | 0.563 |
| KBTBD4 | -0.118 |
| MON1B | -0.195 |
| DDX25 | -1.08 (active) |
| SLC37A2 | 0.785 |
| GLI1 | 1.34 (active) |
| NMRAL1 | 0.714 |
| ABCC5 | 0.634 |
| SEMA6D | -0.0983 |
| EOMES | 1.12 (active) |
| RAP1GDS1 | -0.69 |
| OR10H5 | -1.07 (active) |
| ARFGEF3 | -0.144 |
| OR51A7 | -2.2 (active) |
| ADA2 | -0.832 |
| DPYSL3 | 1.02 (active) |
| ZNF160 | -1.21 (active) |
| TRAM1L1 | 0.333 |
| THOP1 | 1.21 (active) |
| MMP19 | -3.72 (active) |
| RGS1 | -1.82 (active) |
| SASS6 | 0.663 |
| SMAD9 | -1.06 (active) |
| ATP11AUN | -0.48 |
| CHMP2A | 0.883 |
| ATAD3A | -1.39 (active) |
| IGF1 | -1.58 (active) |
| SUSD3 | -0.33 |
| UCP2 | -0.956 |
| DEFA5 | -0.221 |
| BCAN | -1.08 (active) |
| ACOX3 | -1.72 (active) |
| LRRFIP2 | 1.31 (active) |
| SBNO1 | 0.569 |
| SERPINB9 | 0.544 |
| OR5H15 | 0.461 |
| OR13F1 | 0.555 |
| LRCH1 | -1.26 (active) |
| DYNLT5 | -0.567 |
| SLC66A1 | 0.0063 |
| RORC | -2.57 (active) |
| APOA1 | -0.521 |
| MLH1 | -0.847 |
| CXCR5 | -0.763 |
| OR2A5 | -1.7 (active) |
